Experimental data from paper PMC9933715, “N-Phenylpyridine-3-Carboxamide and 6-Acetyl-1H-Indazole Inhibit the RNA Replication Step of the Dengue Virus Life Cycle” (Antimicrobial Agents and Chemotherapy, 2023).

Test system: sg-DENV-R2H
Assay: Resistance selection with selectable subgenomic replicon sg-DENV-R2H in Huh7.5 cells
Assay type: cell-based, Dengue virus
Conditions: 100 µM, hygromycin 500 µg/mL, 31 days of dual selection

O=C(Nc1ccccc1)c1cccnc1 [NPP3C, N-phenylpyridine-3-carboxamide]
selection of resistant cells (genetic barrier to resistance): unable to select resistant cells
